Anti-infective test results gathered from many reports (values: NIAID ChemDB through PubChem).

Shared fields: whole-cell or culture tests; organism: HIV-1; cells: MT-4; read by: cytopathic effect / MTT; measure: EC50

ECn is the concentration giving n% inhibition of infection, replication or growth.

{"compound": "CCc1c(Cc2cccc(Cc3[nH]c(=S)[nH]c(=O)c3CC)c2)[nH]c(=S)[nH]c1=O", "strain or isolate": "NNRTI-resistant", "changes": "RT-Y181C", "result": ">100 µM"}
{"compound": "Cc1[nH]c(=S)n(Nc2cccc(Cl)c2)c1-c1cccc(C#N)c1", "strain or isolate": "SO561945 (RT K103N Y181C)", "changes": "RT-K103N Y181C", "result": ">99.4 µM"}
{"compound": "CNc1nc2ccc(S(=O)(=O)N(CC(C)C)C[C@@H](O)[C@H](Cc3ccccc3)NC(=O)OCc3cncs3)cc2o1", "strain or isolate": "LAI WT", "result": "0.0105 µM"}
{"compound": "Cc1cccc(Nn2c(-c3ccccc3)c(C)[nH]c2=S)c1", "strain or isolate": "NL4-3", "result": "2.17 µM"}
{"compound": "COc1c(Cl)cc(C(=CCCCCN[C@@H]2CC[C@]3(C)C4CC[C@@]5(C)C(CC[C@@H]5C(C)CCCC(C)C)C4CC[C@H]3C2)c2cc(Cl)c(OC)c(C(=O)O)c2)cc1C(=O)O", "strain or isolate": "RF", "result": ">200 µM"}
{"compound": "CN(C)C=Nc1ccc(N2C(=O)C(C#N)=CC3C2c2ccccc2N3C)cc1", "strain or isolate": "LAI", "result": "1–32 µM"}
{"compound": "CC(C)CN(C[C@@H](O)[C@H](Cc1ccccc1)NC(=O)O[C@H]1CO[C@H]2OCC[C@H]21)S(=O)(=O)c1ccc(-c2nc(N)nc(N)n2)cc1", "strain or isolate": "LAI", "result": "1 µM"}
{"compound": "CCc1c(Cc2cccc(Cc3nc(SC(C)C)[nH]c(=O)c3CC)c2)nc(SC(C)C)nc1OC(C)C", "strain or isolate": "RT-K103N+Y181C NNRTI-resistant", "changes": "RT-K103N Y181C", "result": ">43 µM"}
{"compound": "Cn1c2ccccc2c2c1cc(C#N)c(=O)n2-c1ccc([N+](=O)[O-])cc1", "strain or isolate": "LAI WT", "result": "0.03 µM"}
{"compound": "CC(=O)Nc1nc(-c2ccc(S(=O)(=O)N(CC(C)C)C[C@@H](O)[C@H](Cc3ccccc3)NC(=O)COc3c(C)cc(Br)cc3C)cc2)cs1", "strain or isolate": "LAI", "result": "63.1 µM"}
{"compound": "CCC(C)[C@@H](C(=O)N[C@@H](Cc1ccccc1)[C@H](O)CN(CC1CCCC1)S(=O)(=O)c1ccc(/C=N/O)cc1)N1CCN(Cc2cccnc2)C1=O", "conditions": "50% human serum", "result": "0.011 µM"}
{"compound": "N#Cc1cc2[nH]c3ccccc3c2n(-c2ccc([N+](=O)[O-])cc2)c1=O", "strain or isolate": "C", "changes": "RT-L100I K103N", "result": "2.51 µM"}
{"compound": "CCCc1nc(-c2ccc(S(=O)(=O)N(CC(C)C)C[C@@H](O)[C@H](Cc3ccccc3)NC(=O)O[C@H]3CO[C@H]4OCC[C@H]43)cc2)co1", "changes": "PR-L010F M046I M071V I084V", "result": "0.876 µM"}
{"compound": "COCc1cccc(CN2CCN([C@H](C(=O)N[C@@H](Cc3ccccc3)[C@H](O)CN(CC(C)C)S(=O)(=O)c3ccc(/C=N/O)cc3)C(C)(C)C)C2=O)n1", "strain or isolate": "A17 (LPV-resistant)", "changes": "PR-L10F V32I M46I I47V Q68E I84V", "result": "0.0025 µM"}
{"compound": "Cc1ncn(Nc2cccc(Cl)c2)c1-c1cccc(C#N)c1", "strain or isolate": "SO561945 (RT K103N Y181C)", "changes": "RT-K103N Y181C", "result": "22.57 µM"}
{"compound": "C=CCOCn1c(Cc2cccc(Cc3[nH]c(=O)[nH]c(=O)c3CC)c2)c(CC)c(=O)[nH]c1=O", "strain or isolate": "NNRTI-resistant", "changes": "RT-Y181C", "result": ">100 µM"}
{"compound": "COc1c(Cl)cc(C(=CCNC(=O)C[C@H]2CC[C@]3(C)C4CC[C@@]5(C)C(CC[C@@H]5CC(=O)NCC=C(c5cc(Cl)c(OC)c(C(=O)O)c5)c5cc(Cl)c(OC)c(C(=O)O)c5)C4CC[C@H]3C2)c2cc(Cl)c(OC)c(C(=O)O)c2)cc1C(=O)O", "strain or isolate": "IIIB", "result": "48 µM"}
{"compound": "Cc1cn([C@H]2C=C[C@@H](CO)O2)c(=O)[nH]c1=O", "strain or isolate": "RD 22wt-RT", "result": "0.3 µM"}
{"compound": "COc1ccc(S(=O)(=O)N(CC(C)C)C[C@@H](O)[C@H](Cc2ccccc2)NC(=O)[C@H](C(C)C)N2CC(=O)N(Cc3ccccc3)C2=O)cc1", "strain or isolate": "A17 (LPV-resistant)", "changes": "PR-L10F V32I M46I I47V Q68E I84V", "result": "0.059 µM"}
{"compound": "CC(C)CN(C[C@@H](O)[C@H](Cc1ccccc1)NC(=O)O[C@H]1CO[C@H]2OCC[C@H]21)S(=O)(=O)c1ccc(-c2cnc(NC(=O)O[C@H]3CO[C@H]4OCC[C@H]43)[nH]2)cc1", "changes": "PR-L010F M046I M071V I084V", "result": "0.52 µM"}
{"compound": "CCCCCCC(C)[C@H]1CCC2C3CC[C@H]4C[C@@H](CCC=C(c5cc(Cl)c(O)c(C(=O)O)c5)c5cc(Cl)c(O)c(C(=O)O)c5)CC[C@]4(C)C3CC[C@@]21C", "strain or isolate": "IIIB", "result": "3 µM"}
{"compound": "CCNc1nc(-c2ccc(S(=O)(=O)N(CC(C)C)C[C@@H](O)[C@H](Cc3ccccc3)NC(=O)COc3c(C)cccc3C)cc2)cs1", "strain or isolate": "LAI", "result": "5.012 µM"}
{"compound": "Cc1[nH]c(=S)n(Nc2cccc(Br)c2)c1-c1ccccc1", "strain or isolate": "SO561945 (RT K103N Y181C)", "changes": "RT-K103N Y181C", "result": "5.77 µM"}
{"compound": "CCC(C)[C@@H](C(=O)N[C@@H](Cc1ccccc1)[C@H](O)CN(CC1CCCC1)S(=O)(=O)c1ccc(/C=N/O)cc1)N1CCN(Cc2cccc(COC)n2)C1=O", "result": "0.002 µM"}
{"compound": "CCN1c2ccccc2C2C1C=C(C#N)C(=O)N2c1ccc([N+](=O)[O-])cc1", "strain or isolate": "LAI", "result": "<1 µM"}
{"compound": "Cc1[nH]c(=S)n(Nc2ccccc2Cl)c1-c1ccccc1", "strain or isolate": "SO561945 (RT K103N Y181C)", "changes": "RT-K103N Y181C", "result": ">162 µM"}
{"compound": "Cc1c(C(=O)N[C@@H](Cc2ccccc2)[C@H](O)CN(CC(C)C)S(=O)(=O)c2ccc3nc(N)oc3c2)ccc2c1OCO2", "strain or isolate": "LAI WT", "result": "0.0107 µM"}
{"compound": "C[C@]12CCC3C(CC[C@H]4C[C@@H](CC=C(c5cc(Cl)c(O)c(C(=O)O)c5)c5cc(Cl)c(O)c(C(=O)O)c5)CC[C@]34C)C1CC[C@@H]2CC=C(c1cc(Cl)c(O)c(C(=O)O)c1)c1cc(Cl)c(O)c(C(=O)O)c1", "strain or isolate": "IIIB", "result": "14 µM"}
{"compound": "C=C(C)[C@@H]1CC[C@]2(C(=O)NCCCCCCCC(=O)N[C@@H](CC(C)C)[C@@H](O)CC(=O)O)CC[C@]3(C)[C@H](CC[C@@H]4[C@@]5(C)CC[C@H](O)C(C)(C)[C@@H]5CC[C@]43C)[C@@H]12", "strain or isolate": "2750 M", "result": "0.14 µM"}
{"compound": "CC(C)CN(C[C@@H](O)[C@H](Cc1ccccc1)NC(=O)O[C@H]1CO[C@H]2OCC[C@H]21)S(=O)(=O)c1ccc(-c2cnccn2)cc1", "strain or isolate": "LAI", "result": "0.008 µM"}
{"compound": "CNc1nc2ccc(S(=O)(=O)N(CC(C)C)C[C@@H](O)[C@H](Cc3ccccc3)NC(=O)O[C@H]3CCOC3)cc2o1", "strain or isolate": "LAI WT", "result": "0.0078 µM"}
{"compound": "CCc1c(Cc2cccc(Cc3nc(SC)[nH]c(=O)c3CC)c2)nc(SC)[nH]c1=O", "strain or isolate": "NNRTI-resistant", "changes": "RT-Y181C", "result": ">100 µM"}
{"compound": "CC(C)CN(C[C@@H](O)[C@H](Cc1ccccc1)NC(=O)OCc1cnc[nH]1)S(=O)(=O)c1ccc2nc(N)oc2c1", "strain or isolate": "LAI WT", "result": "1.349 µM"}
{"compound": "CCC(C)[C@@H](C(=O)N[C@@H](Cc1ccccc1)[C@H](O)CN(CC(C)C)S(=O)(=O)c1ccc(/C=N/O)cc1)N1CCN(Cc2cccnc2C)C1=O", "conditions": "50% human serum", "result": "0.016 µM"}
{"compound": "Cc1ncn(Nc2cccc(Cl)c2)c1-c1cccc(Cl)c1", "strain or isolate": "SO561945 (RT K103N Y181C)", "changes": "RT-K103N Y181C", "result": "0.38 µM"}
{"compound": "CNc1nc2ccc(S(=O)(=O)N(CC(C)C)C[C@@H](O)[C@H](Cc3ccccc3)NC(=O)O[C@H]3CO[C@H]4OCC[C@H]43)cc2o1", "strain or isolate": "LAI WT", "result": "0.0027 µM"}

Again, the opening 5 rows:

compound | conditions | strain or isolate | changes | result
CCc1c(Cc2cccc(Cc3[nH]c(=S)[nH]c(=O)c3CC)c2)[nH]c(=S)[nH]c1=O | - | NNRTI-resistant | RT-Y181C | >100 µM
Cc1[nH]c(=S)n(Nc2cccc(Cl)c2)c1-c1cccc(C#N)c1 | - | SO561945 (RT K103N Y181C) | RT-K103N Y181C | >99.4 µM
CNc1nc2ccc(S(=O)(=O)N(CC(C)C)C[C@@H](O)[C@H](Cc3ccccc3)NC(=O)OCc3cncs3)cc2o1 | - | LAI WT | - | 0.0105 µM
Cc1cccc(Nn2c(-c3ccccc3)c(C)[nH]c2=S)c1 | - | NL4-3 | - | 2.17 µM
COc1c(Cl)cc(C(=CCCCCN[C@@H]2CC[C@]3(C)C4CC[C@@]5(C)C(CC[C@@H]5C(C)CCCC(C)C)C4CC[C@H]3C2)c2cc(Cl)c(OC)c(C(=O)O)c2)cc1C(=O)O | - | RF | - | >200 µM

Blank or dashed fields: not listed here. Two numbers with a dash give a range or band. Rows are shuffled and stem from different studies.